Experimental data reported in US12569565B2, “Compositions and methods for the treatment of viral infections” (Cidara Therapeutics, Inc., priority 2018, dated 2026).

Legend:
[1] = system: A/California/04/09/H1N1 pdm; test: Serial passage for selection of resistant influenza viruses, A549 cells; settings: baloxavir 0.5 nM, oseltamivir 200 nM
A/WSN/1933 H1N1 = test: Serial passage for selection of resistant influenza viruses, MDCK cells; settings: baloxavir 4 nM, oseltamivir 50 nM

Structure (SMILES) | passage after which titers increased to levels similar to PBS control [1] | passage after which titers increased to levels similar to PBS control (A/WSN/1933 H1N1)
O=C1c2c(O)c(=O)ccn2N([C@@H]2c3ccccc3SCc3c2ccc(F)c3F)[C@@H]2COCCN12 | 5 | 5
CCOC(=O)C1=C[C@@H](OC(CC)CC)[C@H](NC(C)=O)[C@@H](N)C1 | 11 | 10
